Results of unrelated studies side by side (data: NIAID ChemDB).

Shared fields: target-level tests

a–b is a range or a potency band. ICn: concentration for n% inhibition. Blank or dashed fields: not listed here. Percent inhibition refers to the dose given; in toxicity tests it is the harm to the cells. Neighbouring rows are from separate reports.

structure | dose | endpoint | read by | target | strain | species | setting | value
N#Cc1ccc(NC(=O)Nc2cccc(-c3nc(C(=O)O)c(O)c(=O)[nH]3)c2)cc1 | - | IC50 | - | HCV polymerase | - | Hepatitis C virus | - | <100 µM
O=C(O)c1sc(-c2ccccc2)cc1NS(=O)(=O)c1ccccc1OC(F)(F)F | - | IC50 | - | NS3 ATPase | - | Hepatitis C virus | - | >20 µM
CC[C@H](C)[C@H](NC(=O)[C@@H](NC(=O)[C@@H](N)CCC(=O)O)C(c1ccccc1)c1ccccc1)C(=O)N[C@@H](CC1CCCCC1)C(=O)N[C@@H](CS)C(=O)O | - | IC50 | - | NS3 protease | - | Hepatitis C virus | - | 2.5 µM
CC1CCC(C)(C(=O)N(c2cc(-c3ccccc3)sc2C(=O)O)C(C)C)CC1 | - | IC50 | - | NS3 ATPase | - | Hepatitis C virus | - | <5 µM
O=C(Nc1ccc2[nH]ncc2c1)c1cc(N2CCNCC2)c(F)cc1F | 0.1 µg/mL | inhibition | - | Nonstructural protein 5B | - | Hepatitis C virus | - | 20%
C=C(C[C@H](NC(=O)[C@H](CCC(=O)O)NC(=O)[C@H](CCSC)NC(=O)[C@H](CCC(=O)O)NC(=O)[C@@H](N)CC(=O)O)C(=O)N[C@@H](CS)C(=O)O)c1ccccc1/C=C\C | - | IC50 | - | NS3 protease | - | Hepatitis C virus | - | 0.8 µM
CC(=O)N[C@@H](CC(=O)O)C(=O)N[C@H](Cc1ccc(O)cc1)C(=O)N[C@@H](CC(C)C)C(=O)N[C@@H](CCC(=O)O)C(=O)N[C@@H](CC1CCCCC1)C(=O)N[C@@H](CS)C(=O)O | - | IC50 | - | HCV NS3 protease | - | Hepatitis C virus | - | 0.68 µM
CC(C(=O)Nc1ccsc1-c1nc(C(=O)O)c(O)c(=O)[nH]1)c1n[nH]c(=O)c2ccccc12 | - | IC50 | - | HCV polymerase | - | Hepatitis C virus | - | <25 µM
CC(C)[C@H](NC(=O)[C@H](CCC(=O)O)NC(=O)[C@@H](N)CC(=O)O)C(=O)N[C@@H](CCC(=O)O)C(=O)N[C@@H](CC1CCCCC1)C(=O)N[C@@H](CS)C(=O)O | - | IC50 | - | NS3 protease | - | Hepatitis C virus | - | 0.33 µM
O=C(c1ccc(Cl)cc1Cl)N(Cc1ccc(-c2cc3ccccc3o2)cc1)C(CC1CCCCC1)=C(O)O | - | IC50 | - | RNA-dependent RNA polymerase | - | Hepatitis C virus | - | <5 µM
CSCC[C@H](NC(=O)[C@H](CCC(=O)O)NC(=O)[C@@H](N)CC(=O)O)C(=O)N[C@@H](CCC(=O)O)C(=O)N[C@@H](CCC(=O)O)C(=O)NCCC(=O)O | - | IC50 | - | NS3 protease | - | Hepatitis C virus | - | >200 µM
CCN(CC)Cc1c(Cl)cccc1S(=O)(=O)NC(=O)Nc1cscc1-c1nc(C(=O)O)c(O)c(=O)[nH]1 | - | IC50 | - | HCV polymerase | - | Hepatitis C virus | - | <25 µM
CS(=O)(=O)NN1C(=O)/C(=C\c2ccc(Cl)c(Cl)c2)SC1=S | - | IC50 | - | NS5B polymerase | - | Hepatitis C virus | - | ≤30 µM
O=C(Nc1ccc2cn[nH]c2c1)c1cc(N2CCNCC2)c(F)cc1F | 1 µg/mL | inhibition | - | Reverse transcriptase | - | Hepatitis B virus | - | 56%
CC(C)C[C@H](NC(=O)[C@H](CCC(=O)O)NC(=O)[C@@H](N)CC(=O)O)C(=O)N[C@@H](CCC(=O)O)C(=O)N[C@@H](CC1CCCCC1)C(=O)N[C@@H](CS)C(=O)O | - | IC50 | - | NS3 protease | - | Hepatitis C virus | - | 0.12 µM
CCCC[C@H](NC(=O)[C@H](CCC(=O)O)NC(=O)[C@H](CC(=O)O)NC(C)=O)C(=O)N[C@@H](CCC(=O)O)C(=O)N[C@@H](CC1CCCCC1)C(=O)N[C@@H](CS)C(=O)O | - | IC50 | - | HCV NS3 protease | - | Hepatitis C virus | - | 0.224 µM
O=C(Nc1ccc2cn[nH]c2c1)c1cc(NCc2ccccn2)c(F)cc1F | 0.1 µg/mL | inhibition | - | Reverse transcriptase | - | Hepatitis B virus | - | 39%
O=C(O)[C@H](Cc1ccccc1)N(Cc1ccc(Br)s1)C(=O)c1ccc(Cl)cc1Cl | - | IC50 | - | RNA-dependent RNA polymerase | - | Hepatitis C virus | - | <5 µM
Cc1ccccc1S(=O)(=O)Nc1cc(-c2ccc(Cl)c(F)c2)sc1C(=O)O | - | IC50 | - | NS3 ATPase | - | Hepatitis C virus | - | <5 µM
C=C[C@@H]1C[C@]1(NC(=O)[C@@H]1C[C@@H](Oc2nccc3ccc(Br)cc23)CN1C(C)=O)C(=O)NS(=O)(=O)C1CC1 | - | IC50 | FRET | Nonstructural protein 3/4A | 1b WT | Hepatitis C virus | - | 2.458 µM
O=C(Nc1ccc2cn[nH]c2c1)c1cc(C2CCNCCN2)c(F)cc1F | 0.01 µg/mL | inhibition | - | Reverse transcriptase | - | Hepatitis B virus | - | 31%
O=C(Nc1cc(Cl)nc(Cl)c1)Nc1cc(-c2ccccc2)sc1C(=O)O | - | IC50 | - | NS3 ATPase | - | Hepatitis C virus | - | <5 µM
CC[C@H](NC(=O)[C@@H](NC(=O)[C@H](C(C)C)N(C)C(=O)[C@H](CC(=O)O)NC(=O)[C@@H](N)CCC(=O)O)C(C)C)C(=O)N[C@@H](CS)C(=O)O | - | IC50 | - | NS3 protease | - | Hepatitis C virus | - | 1.3 µM
O=c1c(O)c(-c2ccc(O)c(O)c2)oc2cc(O)cc(O)c12 | 20 µM | inhibition | SYBR Green | Replicase complex | J4 | Hepatitis C virus | - | 83.7%
CC[C@H](C)[C@H](NC(=O)[C@@H](NC(C)=O)C(c1ccccc1)c1ccccc1)C(=O)N[C@@H](CC1CCCCC1)C(=O)N[C@@H](CS)C(=O)O | - | IC50 | - | HCV NS3 protease | - | Hepatitis C virus | - | 100 µM
O=C(CCC(=O)Nc1ccsc1-c1nc(C(=O)O)c(OCc2cc(F)ccc2F)c(=O)[nH]1)NO | - | IC50 | - | HCV polymerase | - | Hepatitis C virus | - | <50 µM
O=C(Nc1ccc2[nH]ncc2c1)c1cc(C2CCNCCN2)c(F)cc1F | 1 µg/mL | inhibition | - | Reverse transcriptase | - | Hepatitis B virus | - | 67%
O=C(NCc1ccccc1Cl)Nc1ccsc1-c1nc(C(=O)O)c(O)c(=O)[nH]1 | - | IC50 | - | HCV polymerase | - | Hepatitis C virus | - | <25 µM
CC[C@H](NC(=O)[C@@H](NC(=O)[C@@H](NC(=O)[C@H](CC(=O)O)NC(=O)CCCC(=O)O)C(C)C)C(C)C)C(=O)N[C@@H](CS)C(=O)O | - | IC50 | - | HCV NS3 protease | - | Hepatitis C virus | - | 5.5 µM
O=C(Nc1cc(-c2ccccc2)sc1C(=O)O)c1cccs1 | - | IC50 | - | NS3 ATPase | - | Hepatitis C virus | - | 5–20 µM
O=C(O)[C@H](Cc1ccccc1)N(Cc1cc2ccccc2o1)C(=O)c1ccc(Cl)cc1Cl | - | IC50 | - | RNA-dependent RNA polymerase | - | Hepatitis C virus | - | <5 µM
CC(=O)N[C@@H](CC(=O)O)C(=O)N[C@@H](CCC(=O)O)C(=O)N[C@H](C(=O)N[C@H](C(=O)N[C@@H](CS)C(=O)N[C@@H](CS)C(=O)O)C(C)C)C(C)C | - | IC50 | - | HCV NS3 protease | - | Hepatitis C virus | - | 2.1 µM
O=c1cc(-c2ccccc2)oc2c(O)c(O)cc(O)c12 | 20 µM | inhibition | SYBR Green | Replicase complex | J4 | Hepatitis C virus | - | 47.4%
CC1CCC(C(=O)N(c2cc(-c3cccc([N+](=O)[O-])c3)sc2C(=O)O)C(C)C)CC1 | - | IC50 | - | NS3 ATPase | - | Hepatitis C virus | - | <5 µM
CC(=O)N[C@@H](CC(=O)O)C(=O)N[C@@H](CCC(=O)O)C(=O)N[C@@H](Cc1ccc(O)cc1)C(=O)N[C@@H](CCC(=O)O)C(=O)N[C@@H](CC1CCCCC1)C(=O)N[C@@H](CS)C(=O)O | - | IC50 | - | HCV NS3 protease | - | Hepatitis C virus | - | 0.236 µM
O=C(Nc1ccc2[nH]ncc2c1)c1cc(N2CCN(CCO)CC2)c(F)cc1F | 1 µg/mL | inhibition | - | Reverse transcriptase | - | Hepatitis B virus | - | 55%
COc1ccc(S(=O)(=O)NN2C(=O)/C(=C\c3ccc(Cl)c(Cl)c3)SC2=S)cc1 | - | IC50 | - | NS5B polymerase | - | Hepatitis C virus | - | ≤30 µM
O=c1c(O)c(-c2ccc(O)cc2O)oc2cc(O)cc(O)c12 | 20 µM | inhibition | SYBR Green | Replicase complex | J4 | Hepatitis C virus | - | 69.3%
CC(CO)N(C(=O)c1ccc(Cl)cc1Cl)c1cc(-c2ccccc2)sc1C(=O)O | - | IC50 | - | NS3 ATPase | - | Hepatitis C virus | - | <5 µM
O=C(Cc1cccc2ccccc12)Nc1ccsc1-c1nc(C(=O)O)c(O)c(=O)[nH]1 | - | IC50 | - | HCV polymerase | - | Hepatitis C virus | - | <25 µM
COc1ccc(-c2ccc(/C=C3/SC(=S)NC3=O)s2)cc1 | - | IC50 | - | NS5B polymerase | - | Hepatitis C virus | - | ≤30 µM
O=C(O)c1nc(-c2cc(OCc3ccccc3)cs2)[nH]c(=O)c1O | - | IC50 | - | HCV polymerase | - | Hepatitis C virus | - | <25 µM
O=C(Nc1ccc2cn[nH]c2c1)c1cc(N2CCC(O)CC2)c(F)cc1F | 10 µg/mL | inhibition | - | Nonstructural protein 5B | - | Hepatitis C virus | - | 75%
O=C1NC(=S)S/C1=C/c1ccc([N+](=O)[O-])cc1 | - | IC50 | - | NS5B polymerase | - | Hepatitis C virus | - | ≤30 µM
COc1ccc(CNC(C(=O)Nc2ccsc2-c2nc(C(=O)O)c(O)c(=O)[nH]2)c2ccccc2)cc1 | - | IC50 | - | HCV polymerase | - | Hepatitis C virus | - | <25 µM
CC[NH+](CC)c1ncc(CN(C(=O)c2ccc(Cl)cc2Cl)c2cc(-c3ccccc3)sc2C(=O)O)s1 | - | IC50 | - | NS3 ATPase | - | Hepatitis C virus | - | <5 µM
O=C1/C(=C\c2ccc(Cl)c(Cl)c2)SC(=S)N1NS(=O)(=O)c1ccc(Cl)cc1 | - | IC50 | - | NS5B polymerase | - | Hepatitis C virus | - | ≤30 µM
CSCC[C@H](NC(=O)[C@H](CCC(=O)O)NC(=O)[C@H](CC(=O)O)NC(C)=O)C(=O)N[C@@H](CCC(=O)O)C(=O)N[C@@H](CC1CCCCC1)C(=O)N[C@@H](CS)C(=O)O | - | IC50 | - | HCV NS3 protease | - | Hepatitis C virus | - | 0.35 µM
O=C(O)C(Cc1ccccc1)N(Cc1cccc(-c2cc3ccccc3o2)c1)C(=O)c1ccc(Cl)cc1Cl | - | IC50 | HPLC | Nonstructural protein 3 NTPase/helicase | - | Hepatitis C virus | - | 5–20 µM
CC[C@H](C)[C@H](NC(=O)[C@H](CC(C)C)NC(=O)[C@@H](CC(C(=O)O)C(=O)O)NC(=O)[C@H](CC(=O)O)NC(C)=O)C(=O)N[C@@H](CC1CCCCC1)C(=O)N[C@@H](CS)C(=O)O | - | IC50 | - | HCV NS3 protease | - | Hepatitis C virus | - | 0.0015 µM
CC(C)N(C(=O)c1ccc(Cl)cc1Cl)c1cc(Br)sc1C(=O)O | - | IC50 | - | NS3 ATPase | - | Hepatitis C virus | - | <5 µM
O=c1c(O)c(-c2ccc(O)c(O)c2)oc2cc(O)c(O)c(O)c12 | - | IC50 | SYBR Green | Replicase complex | J4 | Hepatitis C virus | genotype 1b | 4.3 µM
Nc1nccnc1-c1nc(C(=O)O)c(O)c(=O)[nH]1 | - | IC50 | - | HCV polymerase | - | Hepatitis C virus | - | <100 µM

Repeating the final 4 entries:

CC[C@H](C)[C@H](NC(=O)[C@H](CC(C)C)NC(=O)[C@@H](CC(C(=O)O)C(=O)O)NC(=O)[C@H](CC(=O)O)NC(C)=O)C(=O)N[C@@H](CC1CCCCC1)C(=O)N[C@@H](CS)C(=O)O ; endpoint: IC50 ; target: HCV NS3 protease ; species: Hepatitis C virus ; value: 0.0015 µM
CC(C)N(C(=O)c1ccc(Cl)cc1Cl)c1cc(Br)sc1C(=O)O ; endpoint: IC50 ; target: NS3 ATPase ; species: Hepatitis C virus ; value: <5 µM
O=c1c(O)c(-c2ccc(O)c(O)c2)oc2cc(O)c(O)c(O)c12 ; endpoint: IC50 ; read by: SYBR Green ; target: Replicase complex ; strain: J4 ; species: Hepatitis C virus ; setting: genotype 1b ; value: 4.3 µM
Nc1nccnc1-c1nc(C(=O)O)c(O)c(=O)[nH]1 ; endpoint: IC50 ; target: HCV polymerase ; species: Hepatitis C virus ; value: <100 µM